Measured values from several laboratories, pooled; numbers as filed in NIAID ChemDB.

All rows: tests in culture; agent: Mycobacterium tuberculosis

MIC50, MIC90 and the like: level of inhibition, or share of isolates inhibited. MIC bound comes from a single tested concentration. Conditions beyond the fields shown may differ between rows. Percent inhibition refers to the dose given; in toxicity tests it is the harm to the cells. Blank or dashed fields: not listed here. ECn is the concentration giving n% inhibition of infection, replication or growth.

SMILES,strain,mutations,cell line,read by,setting,measure,dose,value
CC1=NN(C(=O)c2ccncc2)C(=O)C1N=Nc1ccc(S(=O)(=O)Nc2ncccn2)cc1,H37Rv,,,BACTEC,,MIC,,≥12.8 µg/mL
O=C1c2cc(I)ccc2-n2c1nc1ccccc1c2=O,H37Rv,,,,,MIC,,≤0.2 µg/mL
Cc1cc(NS(=O)(=O)c2ccc(NC(=O)N3CCC3)cc2)no1,H37Rv,,,broth dilution / absorbance,21 d,MIC100,,4 µM
CO[C@H]1/C=C/O[C@@]2(C)Oc3c(C)c(O)c4c(=O)c(c5oc6cc(N7CCN(CC(C)C)CC7)cc(=O)c6nc5c4c3=C2O)NC(=O)/C(C)=C\C=C\[C@H](C)[C@H](O)[C@@H](C)[C@@H](O)[C@@H](C)[C@H](OC(C)=O)[C@@H]1C,2257 (rifampicin-susceptible),,,,,MBC,,0.015 µg/mL
COC(=O)c1c(C(=O)OC)c2c(Br)cc3ccccc3n2c1C(=O)c1ccc(C#N)cc1,,MDR,,resazurin,,MIC,,8 µg/mL
O=c1oc2ccc(Br)cc2c(=S)n1-c1ccc(F)cc1,My 331/88,,,,21 d,MIC,,2 µM
Cc1nc(Cc2ccc(O)c(O)c2)c(C)o1,H37Rv,,,BACTEC,,MIC bound,,>12.5 µg/mL
O=c1[nH]c2c([N+](=O)[O-])cccc2c(O)c1N=Nc1ccc(Cl)c(Cl)c1,H37Rv,,,resazurin,,MIC,,<6.25 µg/mL
CCCCCCCCCCNC(=O)Nc1ccc(S(=O)(=O)Nc2cc(C)on2)cc1,H37Rv,,,broth dilution / absorbance,21 d,MIC100,,125 µM
O=c1oc2ccc(-c3ccccc3)cc2c(O)c1N=Nc1cccc(F)c1Cl,H37Rv,,,resazurin,,inhibition,6.25 µg/mL,19%
FC(F)(F)Oc1ccc(CCNc2ncnc3ccsc23)cc1,H37Rv,,,luminescence,,MIC50,,>50 µM
O=C(Cc1csc2nc(-c3ccccc3)cn12)N/N=C/c1cc(Br)ccc1O,H37Rv,,,,,MIC,,>12.5 µg/mL
O=[N+]([O-])[O][Ga]([O][N+](=O)[O-])[O][N+](=O)[O-],Erdman,,,,inside macrophages,EC50,,<500 µM
c1ccc2c(Nc3ccc(N4CCCCC4)cc3)ncnc2c1,H37Rv,,,luminescence,,MIC50,,>50 µM
N=C1N(/N=C/c2ccccn2)C(=Nc2ccccc2)C(=S)N1c1ccccc1,H37Rv,,,BACTEC,,MIC,,12.5 µg/mL
Cc1nc(NCCc2ccc(C(F)(F)F)cc2)c2ccccc2n1,H37Rv,,,luminescence,,MIC50,,>10 µM
CC1=C(N)C(=O)C2=C(C1=O)N1C[C@H]3[C@H](N3C)[C@]1(O)[C@@H]2COC(N)=O,H37Rv,,VERO,,,MIC,,0.8 µg/mL
CC(=O)c1c(C)[nH]c(C(=O)N/N=C/c2ccc(N(C)C)cc2)c1C,H37Rv,,,resazurin,,MIC,,<6.25 µg/mL
CC(=O)N1N=C(c2ccc(OCC(O)CN3CCN(CC(O)COc4ccc(C5=NN(C(C)=O)C(c6ccccc6)C5)cc4)CC3)cc2)CC1c1ccccc1,H37Rv,,,BACTEC,,inhibition,12.8 µg/mL,23%
O=C1c2ccccc2-n2c1nc1ccc(Br)cc1c2=O,MDR 10038,,,,,MIC,,1.3 µg/mL
O=C(Nc1ccccc1Cn1ccnc1)c1ccc(Cl)cc1,103471,,,,,MIC,,>16 µg/mL
Nc1ccc(-n2cc(C(=O)O)c(=O)c3ccc(N4CCOCC4)cc32)c(F)c1,H37Rv,,,BACTEC,,inhibition,6.25 µg/mL,0%
COc1ccc(CCNc2ncnc3ccsc23)cc1,H37Rv,,,luminescence,,MIC50,,>50 µM
COc1ccc2c3c1OC1C(Oc4nnnn4-c4ccccc4)C=CC4C(C2)N(C)CCC341,H37Rv,,,BACTEC,,MIC bound,,>12.5 µg/mL
FC(F)(F)c1ccc(Oc2ccc(Nc3ncnc4[nH]ncc34)cc2)cc1,H37Rv,,,luminescence,,MIC50,,>10 µM
COc1cc(N=Nc2c(S(=O)(=O)O)cc3cc(NC(=O)Nc4ccc5c(O)c(N=Nc6ccc7cc(S(=O)(=O)O)ccc7c6)c(S(=O)(=O)O)cc5c4)ccc3c2O)c(C)cc1N,H37Rv,,,BACTEC,,inhibition,12.5 µg/mL,0%
O=C1c2cc(F)ccc2-n2c1nc1ccc(Cl)cc1c2=O,MDR 10038,,,,,MIC,,<1 µg/mL
CCCCCCNC(=O)Nc1ccc(S(=O)(=O)Nc2cc(C)on2)cc1,H37Rv,,,broth dilution / absorbance,14 d,MIC100,,250 µM
CCN(CC)CCN(C)c1ccc(CO)c2sc3cc(Cl)ccc3c(=O)c12,H37Rv,,VERO,BACTEC,,MIC,,12.5 µg/mL
CO[C@H]1/C=C/O[C@@]2(C)Oc3c(C)c(O)c4c(O)c(c5c(c4c3C2=O)NC2(CCN(CC(C)C)CC2)N=5)=NC(=O)/C(C)=C\C=C\[C@H](C)[C@H](O)[C@@H](C)[C@@H](O)[C@@H](C)[C@H](OC(C)=O)[C@@H]1C,32 clinical isolates,,,,,Geometric mean MIC,,3.2 µg/mL
FC(F)(F)c1ccc(Oc2ccccc2Nc2ncnc3ccccc23)cc1,H37Rv,,,luminescence,,MIC50,,>50 µM
O=C(NN=C1CCCCC1)c1ccncc1,Ethambutol-resistant,,,,,MIC,,0.05 µg/mL
Fc1cccc(-n2c(=S)oc3ccc(F)cc3c2=S)c1,My 331/88,,,,14 d,MIC,,16 µM
O=C(Cc1csc2nc(-c3ccccc3)cn12)N/N=C/c1ccc([N+](=O)[O-])o1,H37Rv,,,,,EC50,,<12.5 µg/mL
COc1cc(C)c2c(=O)c3c(oc2c1)C(=O)c1c(O)c(OC)cc(O)c1C3=O,TAC-R,,,,,MIC,,12.5 µg/mL
Fc1cc(Nc2ncnc3ccccc23)ccc1N1CCN(c2ccc(C(F)(F)F)cc2)CC1,H37Rv,,,luminescence,,MIC50,,>50 µM
OC1N=[N+]2CCN=C2c2cccnc21,H37Rv,,,BACTEC,,inhibition,12.5 µg/mL,0%
O=c1[nH]c2cc([N+](=O)[O-])ccc2c(O)c1N=Nc1ccc(Br)cc1,H37Rv,,,resazurin,,MIC,,<6.25 µg/mL
CN1CCN(c2cc3c(cc2F)C(=O)c2nc4cc(F)ccc4c(=O)n2-3)CC1,MDR 10038,,,,,MIC,,>5 µg/mL
O=C(Cc1csc2nc(-c3ccccc3)cn12)N/N=C/c1ccc([N+](=O)[O-])cc1,H37Rv,,,,,MIC,,>12.5 µg/mL
O=c1[nH]c2c([N+](=O)[O-])cccc2c(O)c1N=Nc1cccc([N+](=O)[O-])c1,H37Rv,,,resazurin,,MIC,,<6.25 µg/mL
Clc1ccc(Oc2ccc(Nc3ncnc4ccccc34)cc2)cc1Cl,H37Rv,,,luminescence,,MIC50,,>20 µM
C[N+]1([O-])CC[N+](C)([O-])CC1,H37Rv,,,BACTEC,,inhibition,12.5 µg/mL,10%
O=c1[nH]c2c([N+](=O)[O-])cccc2c(O)c1N=Nc1ccc(Cl)cc1,H37Rv,,,resazurin,,MIC,,<6.25 µg/mL
Fc1ccc(N2CCN(c3ccc(Nc4ncnc5cc(F)ccc45)cc3)CC2)cc1,H37Rv,,,luminescence,,MIC50,,>10 µM
O=C(/C=C/c1ccccc1)Nc1ccc(CN2CCOCC2)cc1,103471,,,,,MIC,,8 µg/mL
CC1C/C=C\COC(=O)CC(C)(C)CC1=O,H37Rv,,,BACTEC,,MIC,,≥12.5 µg/mL
CCCCNC(=O)Nc1ccc(S(=O)(=O)Nc2cc(C)on2)cc1,H37Rv,,,broth dilution / absorbance,21 d,MIC100,,62.5 µM
Cc1cccc(N=Nc2c(O)c3cc(-c4ccccc4)ccc3oc2=O)c1,H37Rv,,,resazurin,,inhibition,6.25 µg/mL,23%
FC(F)(F)c1ccc(Oc2ccc(Nc3nccc4ccccc34)cc2)cc1,H37Rv,,,luminescence,,MIC50,,>20 µM
CC1COn2cc(C(=O)O)c(=O)c3cc(F)c(N4CCN(Cc5ccc6cccc(O)c6n5)CC4)c1c32,H37Rv,,,BACTEC,,inhibition,6.25 µg/mL,98%
Fc1ccc2oc(=S)n(-c3ccccc3)c(=S)c2c1,My 331/88,,,,14 d,MIC,,4 µM
Cc1ccc2ncnc(NCCc3ccc(OC(F)(F)F)cc3)c2c1,H37Rv,,,luminescence,,MIC50,,>20 µM
Cc1ccc2c(c1)nc1cc(Nc3ccc(Cl)cc3)c(=NC3CCCCCCC3)cc-1n2-c1ccc(Cl)cc1,H37Rv (RFP-resistant),,,,,MIC,,0.2 µg/mL
FC(F)(F)c1ccc(Oc2ccc(Nc3ncnc4cc(C(F)(F)F)ccc34)cc2)cc1,H37Rv,,,luminescence,,MIC50,,>20 µM
O=C1c2cc(F)ccc2-n2c1nc1ncccc1c2=O,MDR 10038,,,,,MIC,,<0.5 µg/mL
CN(C)C1=C(Cl)C(=O)C(=O)c2cccnc21,H37Rv,,,BACTEC,,inhibition,12.5 µg/mL,0%
Nc1ccc(-n2cc(C(=O)O)c(=O)c3cc(F)c(N4CCOCC4)cc32)c(F)c1,H37Rv,,,BACTEC,,inhibition,6.25 µg/mL,48%
COc1ccc2nc(C)cc(Nc3ccc(Oc4ccc(C(F)(F)F)cc4)cc3)c2c1,H37Rv,,,luminescence,,MIC50,,>20 µM
Fc1ccc(-n2c(=S)oc3ccc(Br)cc3c2=S)cc1,My 331/88,,,,21 d,MIC,,2 µM
CNC(=O)Nc1ccc(S(=O)(=O)Nc2cc(C)on2)cc1,H37Rv,,,broth dilution / absorbance,14 d,MIC100,,16 µM
Cc1ccc2oc(=O)n(-c3ccccc3)c(=S)c2c1,My 331/88,,,,21 d,MIC,,2 µM
CC/C(C)=C1\OC(=O)[C@H](C)[C@@H](O)[C@H](Cc2cccnc2)NC(=O)[C@@H](NC(=O)c2ncccc2O)[C@@H](C)OC1=O,H37Rv,,,BACTEC,,MIC,,≥12.5 µg/mL
Cc1nc(Nc2ccc(Oc3ccc(OC(F)(F)F)cc3)cc2)c2ccc(F)cc2n1,H37Rv,,,luminescence,,MIC50,,>20 µM
O=C1c2cc(F)ccc2-n2c1nc1c(F)cccc1c2=O,MDR 10038,,,,,MIC,,<0.4 µg/mL
CCOC(=O)C1=CNc2c(C#N)cnn2C1(C(=O)OCC)c1c[nH]c2ccccc12,H37Rv,,,resazurin,,inhibition,6.25 µg/mL,2%
CO[C@H]1/C=C/O[C@@]2(C)Oc3c(C)c(O)c4c(O)c(c5c(c4c3C2=O)NC2(CCN(CC(C)C)CC2)N=5)=NC(=O)/C(C)=C\C=C\[C@H](C)[C@H](O)[C@@H](C)[C@@H](O)[C@@H](C)[C@H](OC(C)=O)[C@@H]1C,1 isolates (His526Cys),,,,,MIC,,0.0625 µg/mL
O=C(Cc1csc2nc(-c3ccccc3)cn12)N/N=C/c1cccs1,H37Rv,,,,,EC50,,>12.5 µg/mL
COC(=O)CNC(=O)C(NC(=O)C1CCCN1C(=O)OCc1ccccc1)C(C)C,H37Rv,,,BACTEC,,inhibition,12.5 µg/mL,-6%
FS(F)(F)(F)(F)c1ccc(CNc2ncnc3ccccc23)cc1,H37Rv,,,luminescence,,MIC50,,>40 µM
Cn1c(=O)nc2n(-c3cc(C(F)(F)F)cc(C(F)(F)F)c3)c3ccccc3nc-2c1=O,H37Rv,,,BACTEC,,MIC bound,,>12.5 µg/mL
Cc1ccc2oc(=S)n(-c3ccc(Cl)c(Cl)c3)c(=S)c2c1,My 331/88,,,,14 d,MIC,,0.5 µM
c1ccc2c(Nc3ccc(N4CCOCC4)cc3)ncnc2c1,H37Rv,,,luminescence,,MIC50,,>50 µM
Cc1cc2c(cc1C)NC1C(=O)C(c3ccccc3Cl)OC1=N2,H37Rv,,,BACTEC,,inhibition,12.5 µg/mL,-19%
Cc1ccc2c(c1)C(=O)c1nc3ccccc3c(=O)n1-2,MDR 10038,,,,,MIC,,5 µg/mL
O=C(Cc1csc2nc(-c3ccccc3)cn12)N/N=C/c1ccccc1O,H37Rv,,,,,inhibition,12.5 µg/mL,0%
CCCCCNC(=O)Nc1ccc(S(=O)(=O)Nc2cc(C)on2)cc1,H37Rv,,,broth dilution / absorbance,14 d,MIC100,,250 µM
Cc1ccc2oc(=O)n(-c3ccc(Br)cc3)c(=S)c2c1,My 331/88,,,,21 d,MIC,,0.5 µM
Cc1noc(NS(=O)(=O)c2ccc(N=C(N)N=C(N)N)cc2)c1C,H37Rv,,,BACTEC,,inhibition,12.5 µg/mL,17%
CN1CCN(Cc2ccc(NC(=O)/C=C/c3ccccc3)cc2)CC1,103471,,,,,MIC,,8 µg/mL
CCN(CC)C(=S)[S][Bi]([S]C(=S)N(CC)CC)[S]C(=S)N(CC)CC,H37Rv,,,BACTEC,,MIC bound,,≤128 µg/mL
CN1CCN(Cc2ccccc2NC(=O)c2ccc(Cl)cc2)CC1,103471,,,,,MIC,,>16 µg/mL

A second listing of 11 rows from above:

SMILES,strain,mutations,cell line,read by,setting,measure,dose,value
CN(C)C1=C(Cl)C(=O)C(=O)c2cccnc21,H37Rv,,,BACTEC,,inhibition,12.5 µg/mL,0%
c1ccc2c(Nc3ccc(N4CCOCC4)cc3)ncnc2c1,H37Rv,,,luminescence,,MIC50,,>50 µM
Cc1ccc2oc(=O)n(-c3ccccc3)c(=S)c2c1,My 331/88,,,,21 d,MIC,,2 µM
COc1ccc(CCNc2ncnc3ccsc23)cc1,H37Rv,,,luminescence,,MIC50,,>50 µM
CC1COn2cc(C(=O)O)c(=O)c3cc(F)c(N4CCN(Cc5ccc6cccc(O)c6n5)CC4)c1c32,H37Rv,,,BACTEC,,inhibition,6.25 µg/mL,98%
Cc1cccc(N=Nc2c(O)c3cc(-c4ccccc4)ccc3oc2=O)c1,H37Rv,,,resazurin,,inhibition,6.25 µg/mL,23%
Fc1ccc(N2CCN(c3ccc(Nc4ncnc5cc(F)ccc45)cc3)CC2)cc1,H37Rv,,,luminescence,,MIC50,,>10 µM
O=C1c2ccccc2-n2c1nc1ccc(Br)cc1c2=O,MDR 10038,,,,,MIC,,1.3 µg/mL
Cc1ccc2oc(=S)n(-c3ccc(Cl)c(Cl)c3)c(=S)c2c1,My 331/88,,,,14 d,MIC,,0.5 µM
CCCCCCCCCCNC(=O)Nc1ccc(S(=O)(=O)Nc2cc(C)on2)cc1,H37Rv,,,broth dilution / absorbance,21 d,MIC100,,125 µM
Cc1nc(NCCc2ccc(C(F)(F)F)cc2)c2ccccc2n1,H37Rv,,,luminescence,,MIC50,,>10 µM